Results of unrelated studies side by side (data: NIAID ChemDB).

All rows: enzyme or target tests

ICn: concentration for n% inhibition. Inhibition is in % at the dose shown (toxicity tests: loss of growth or viability). Conditions beyond the fields shown may differ between rows. Fold resistance has wild type as its base.

C=C1CN(S(=O)(=O)c2ccc(C)cc2)CCCN(Cc2ccccn2)CCCN(S(=O)(=O)c2ccc(C)cc2)C1 ; target: CD4 ; measure: IC50 ; result: 76.2 µM
Oc1cccc(O)c1O ; target: CD4 ; read by: flow cytometry ; measure: inhibition ; dose: 100 µg/mL ; result: 32%
c1ccc(CNCc2ccc(CN3CCCNCCNCCCNCC3)cc2)nc1 ; target: CXCR4 ; measure: IC50 ; result: 0.001 µg/mL
O=C(O)Cc1cc(O)ccc1O ; target: CD4 ; read by: flow cytometry ; measure: inhibition ; dose: 20 µg/mL ; result: 91%
C=C1CN(S(=O)(=O)c2ccc(Br)cc2)CCCN(C(=O)OCC)CCCN(S(=O)(=O)c2ccc(Br)cc2)C1 ; target: CD4 ; measure: IC50 ; result: 14.4 µM
O=C(O[C@@H]1Cc2c(O)cc(O)cc2O[C@@H]1c1cc(O)c(O)c(O)c1)c1cc(O)c(O)c(O)c1 ; target: CXCR4 ; read by: ELISA ; measure: IC50 ; result: >20 µM
O=C(O)Cc1ccc(O)c(O)c1 ; target: CD4 ; read by: flow cytometry ; measure: inhibition ; dose: 100 µg/mL ; result: 55%
C=CCN(C(=O)OCc1ccccc1)C1CCN(CCC(C)(c2ccccc2)C2Nc3ccccc3S(=O)(=O)N2)CC1 ; target: CCR3 ; measure: IC50 ; result: >1 µM
C=C1CN(S(=O)(=O)c2ccc(Br)cc2)CCCN(Cc2ccccc2)CCCN(S(=O)(=O)c2ccc(Br)cc2)C1 ; target: CD4 ; measure: IC50 ; result: 1.77 µM
O=C(O)c1ccc(O)c(O)c1 ; target: CD4 ; read by: flow cytometry ; measure: inhibition ; dose: 100 µg/mL ; result: 9%
CCN(C(=O)Cc1ccc(S(C)(=O)=O)cc1)C1CCN(CC[C@H](NC(=O)C2CCN(C(=O)Cc3ccccc3)CC2)c2ccccc2)CC1 ; target: CCR5 ; read by: fluorescence ; measure: IC50 ; result: <50 µM
Cn1cc(C(=O)O)c(=O)c2cc(N)c(N3CCN(c4ccccn4)CC3)cc21 ; target: Tat:TAR/LTR ; measure: IC50 ; result: 720 µM
C[C@H](NC(=O)[C@H](CCCSC(=N)N)NC(=O)c1ccc(CNCc2ccccn2)cc1)c1cccc2ccccc12 ; target: CXCR4 ; read by: radiometric ; measure: IC50 ; result: <0.1 µM
O=S(=O)(c1cccc2cnccc12)N1CCNCC1 ; target: Protein kinase C ; read by: nucleotide incorporation ; measure: inhibition ; dose: 0.16 µg/mL ; result: 23.8%
COc1cc2ccccc2oc1=O ; target: Tat:TAR/LTR ; measure: IC50 ; result: >100 µM
CCN(C(=O)Cc1ccc(S(C)(=O)=O)cc1)C1CCN(CC[C@H](NC(=O)C2CCN(S(=O)(=O)c3ccccc3)CC2)c2ccccc2)CC1 ; target: CCR5 ; read by: fluorescence ; measure: IC50 ; result: <50 µM
c1ccc2c(NCc3ccc(CN4CCCNCCNCCCNCC4)cc3)cccc2c1 ; target: CCR5 ; read by: fluorescence ; measure: inhibition ; dose: 10 µM ; result: 86%
O=C(/C=C/c1ncccc1N1CCOCC1)/C=C/c1ncccc1N1CCOCC1 ; target: Nuclear factor-kappa B ; measure: IC50 ; result: 0.56 µM
C=C1CN(S(=O)(=O)c2ccc(C)cc2)CCCN(C(C)=O)CCCN(S(=O)(=O)c2ccc(C)cc2)C1 ; target: CD4 ; measure: IC50 ; result: 18.7 µM
CCC(O)[NH+]1CC[NH+](C(O)CC)CC1.[Cl][Pt-2]([Cl])([Cl])([Cl])([Cl])[Cl] ; target: VP40:TSG101 ; measure: IC50 ; result: 50 µM
O=C(CSc1nc2ccc(NC(=O)c3ccccc3C(=O)O)cc2s1)NCc1ccccc1 ; target: Cyclophilin A ; read by: absorbance ; measure: IC50 ; result: 65.7 µM
C[C@H](NC(=O)[C@H](CCCN1CCCCCC1)NC(=O)c1ccc(CNCc2ncc[nH]2)cc1)c1cccc2ccccc12 ; target: CXCR4 ; read by: radiometric ; measure: IC50 ; result: <0.1 µM
Cn1c2ccccc2c(=O)c2c(O)cccc21 ; target: Protein kinase C ; read by: nucleotide incorporation ; measure: inhibition ; dose: 100 µg/mL ; result: 77.8 ± 12%
O=C(CCCCC(=O)Nc1sc2c(c1C(=O)O)CCCC2)Nc1sc2c(c1C(=O)O)CCCC2 ; target: Cyclophilin A ; read by: absorbance ; measure: IC50 ; result: 70.2 µM
CS(=O)(=O)N(CCCN1CCC(Cc2ccccc2)CC1)c1ccccc1 ; target: CCR5 ; read by: radiometric ; measure: inhibition ; dose: 10 µM ; result: 43%
C=C1CN(S(=O)(=O)c2ccc(C)cc2)CCCN(C(=O)OCC)CCCN(S(=O)(=O)c2ccc(C)cc2)C1 ; target: CD4 ; measure: IC50 ; result: 11.1 µM
COC1C(CO)OC(n2c3ccccc3c3c4c(c5c6ccccc6[nH]c5c32)C(=O)N(C)C4=O)C(O)C1O ; target: Topoisomerase I ; measure: inhibition ; dose: 0.6 µM ; result: 95%
CCCCCCCC1C[C@@H]2CCc3c(C(=O)OCCCCCCC[C@@H]4C[C@@H]5CC[C@H]6C[C@@H](C)N=C(N4O)N56)c(C)nc([n+]32)N1 ; target: CD4 ; measure: IC50 ; result: 7.1 µM
O=S(=O)(c1cccc2cnccc12)N1CCNCC1 ; target: Protein kinase C ; read by: nucleotide incorporation ; measure: inhibition ; dose: 4 µg/mL ; result: 40.5%
Cn1c2ccccc2c(=O)c2c(O)cccc21 ; target: Protein kinase C ; read by: nucleotide incorporation ; measure: inhibition ; dose: 20 µg/mL ; result: 63.2%
O=c1[nH]c2ccccc2c(-c2ccccc2)c1O ; target: Tat:TAR/LTR ; measure: IC50 ; result: >100 µM
CC(C)CCC[C@@H](C)[C@H]1CC[C@H]2[C@@H]3CC[C@H]4C[C@@H](CCCC(c5cccc6cc(S(=O)(=O)O)ccc56)c5cccc6cc(S(=O)(=O)O)ccc56)CC[C@]4(C)[C@H]3CC[C@]12C ; target: CD4 ; read by: ELISA ; measure: IC50 ; result: 9 µM
CCCCCCCCCC1C[C@@H]2CC[C@H]3[C@@H](C(=O)OC(C)CCCCC[C@@H]4C[C@@H]5CC[C@H]6C[C@@H](C)NC(=N4)N56)[C@@H](C)N=C(N1)N23 ; target: CD4 ; measure: IC50 ; result: <30 µM
OCCOCCN1CCN(Cc2cccc(Oc3ccccc3)c2)CC1 ; target: CCR8 ; read by: radiometric ; measure: IC50 ; result: 1.8 µM
O=C1C=CC(=C(c2ccc(O)cc2)c2ccc(O)cc2)C=C1 ; target: CD4 ; read by: flow cytometry ; measure: IC50 ; result: >20 µM
C=C1CN(S(=O)(=O)c2ccc(C)cc2)CCCN(CC(C)CC)CCCN(S(=O)(=O)c2ccc(C)cc2)C1 ; target: CD4 ; measure: IC50 ; result: 0.99 µM
COc1ccnc2[nH]cc(C(=O)C(=O)N3CCN(C(=O)c4ccccc4)C[C@H]3C)c12 ; target: gp120 ; read by: radiometric ; measure: inhibition ; dose: 1 µM ; result: 20%
COc1ccccc1CNCCC[C@H](NC(=O)c1ccc(CNCc2ncc[nH]2)cc1)C(=O)N[C@@H](C)c1cccc2ccccc12 ; target: CXCR4 ; read by: radiometric ; measure: IC50 ; result: <0.1 µM
c1ccc(CNCc2ccc(CN3CCCCCCCNCCNCC3)cc2)nc1 ; target: CXCR4 ; read by: calcium flux ; measure: IC50 ; result: >1 µg/mL
CC(C)CN(CCO)CCC[C@H](NC(=O)c1ccc(CNCc2ncc[nH]2)cc1)C(=O)N[C@@H](C)c1cccc2ccccc12 ; target: CXCR4 ; read by: radiometric ; measure: IC50 ; result: <0.1 µM
CN1CC(C(=O)N(CCCN2CCCCC2)c2ccccc2)CC1=O ; target: CCR5 ; read by: radiometric ; measure: inhibition ; dose: 10 µM ; result: 16%
CCOc1cccc(-c2cc(C(=O)N/N=C/c3ccc(OC)c(CN4CCOCC4)c3)c3ccccc3n2)c1 ; target: Cyclophilin A ; read by: absorbance ; measure: IC50 ; result: 18.67 µM
C[C@H](NC(=O)[C@H](CCCNC1CCCc2ccccc21)NC(=O)c1ccc(CNCc2ncc[nH]2)cc1)c1cccc2ccccc12 ; target: CXCR4 ; read by: radiometric ; measure: IC50 ; result: <0.1 µM
COc1cc(/C=C2\C(=O)N(c3ccccc3)N=C2c2ccccc2)cc(Br)c1OCC(N)=O ; target: Cyclophilin A ; read by: absorbance ; measure: IC50 ; result: 6.98 µM
COc1ccc(C[C@H](C[C@H](O)[C@H](Cc2ccccc2)NC(=O)OC(C)(C)C)C(=O)N[C@H](C(=O)N[C@@H](Cc2ccccc2)C(=O)N2CCOCC2)C(C)C)cc1 ; target: Cathepsin D ; measure: IC50 ; result: 0.015 µM
c1ccc(CNCc2ccc(CN3CCNCCNCCc4cccc(n4)CC3)cc2)nc1 ; target: CXCR4 ; read by: calcium flux ; measure: IC50 ; result: <1 µg/mL
Nc1ccc2ncnc(NCCc3ccc(OCc4ccccc4)cc3)c2c1 ; target: Nuclear factor-kappa B ; read by: luciferase ; measure: IC50 ; result: 0.014 µM
c1ccc(CNCc2ccc(CN3CCNCCc4cccc(c4)CCNCC3)cc2)nc1 ; target: CXCR4 ; read by: calcium flux ; measure: IC50 ; result: <1 µg/mL
O=c1c(O)cc([C@H]2Oc3cc(O)cc(O)c3C[C@H]2O)cc2c([C@H]3Oc4cc(O)cc(O)c4C[C@H]3O)cc(O)c(O)c12 ; target: CXCR4 ; read by: ELISA ; measure: IC50 ; result: >20 µM
O=C(/C=C/c1cccnc1)/C=C/c1cccnc1 ; target: Nuclear factor-kappa B ; measure: IC50 ; result: 2.42 µM
Clc1cc(CN2CCCNCCNCCCNCC2)cc(Cl)n1 ; mutations: CXCR4-D262N ; target: CXCR4 ; measure: fold resistance ; result: 1.36
O=C(O)/C=C/c1ccc(O)c(O)c1 ; target: CD4 ; read by: flow cytometry ; measure: inhibition ; dose: 100 µg/mL ; result: 35%
CCN(C(=O)Cc1ccc(S(C)(=O)=O)cc1)C1CCN(CC[C@H](NC(=O)Oc2ccc(F)cc2)c2ccccc2)CC1 ; target: CCR5 ; read by: fluorescence ; measure: IC50 ; result: <50 µM
c1cnc2c(NCc3ccc(CN4CCCNCCNCCCNCC4)cc3)cccc2c1 ; target: CCR5 ; read by: fluorescence ; measure: inhibition ; dose: 10 µM ; result: 55%
CCN(C(=O)Cc1ccc(S(C)(=O)=O)cc1)C1CCN(CC[C@H](NC(=O)C2CCN(C(=O)c3ccccc3)CC2)c2ccccc2)CC1 ; target: CCR5 ; read by: fluorescence ; measure: IC50 ; result: <50 µM
CC(C)C[C@H](NC(=O)C(NC(=O)[C@@H](N)C(C)C)c1cc(O)cc(O)c1)C(=O)N[C@@H](Cc1ccccc1)C(=O)C(=O)N[C@H](C(=O)N[C@H](C(=O)N[C@@H](CC(=O)O)C(=O)O)C(C)C)C(C)C ; target: Cathepsin D ; measure: IC50 ; result: 0.88 µM
O=C(/C=C/c1ncc(Cl)cc1Cl)/C=C/c1ncc(Cl)cc1Cl ; target: Nuclear factor-kappa B ; measure: IC50 ; result: 17.67 µM
NC(=O)C1=CN([C@@H]2O[C@H](COP(=O)(O)OP(=O)(O)OC[C@H]3O[C@@H](n4cnc5c(N)ncnc54)[C@H](O)[C@@H]3O)[C@@H](O)[C@H]2O)C=C[C@@H]1C(=O)c1ccccc1 ; target: InhA ; measure: Ki ; result: <0.001 µM

Again, the opening 9 rows:

{"structure": "C=C1CN(S(=O)(=O)c2ccc(C)cc2)CCCN(Cc2ccccn2)CCCN(S(=O)(=O)c2ccc(C)cc2)C1", "target": "CD4", "measure": "IC50", "result": "76.2 µM"}
{"structure": "Oc1cccc(O)c1O", "target": "CD4", "read by": "flow cytometry", "measure": "inhibition", "dose": "100 µg/mL", "result": "32%"}
{"structure": "c1ccc(CNCc2ccc(CN3CCCNCCNCCCNCC3)cc2)nc1", "target": "CXCR4", "measure": "IC50", "result": "0.001 µg/mL"}
{"structure": "O=C(O)Cc1cc(O)ccc1O", "target": "CD4", "read by": "flow cytometry", "measure": "inhibition", "dose": "20 µg/mL", "result": "91%"}
{"structure": "C=C1CN(S(=O)(=O)c2ccc(Br)cc2)CCCN(C(=O)OCC)CCCN(S(=O)(=O)c2ccc(Br)cc2)C1", "target": "CD4", "measure": "IC50", "result": "14.4 µM"}
{"structure": "O=C(O[C@@H]1Cc2c(O)cc(O)cc2O[C@@H]1c1cc(O)c(O)c(O)c1)c1cc(O)c(O)c(O)c1", "target": "CXCR4", "read by": "ELISA", "measure": "IC50", "result": ">20 µM"}
{"structure": "O=C(O)Cc1ccc(O)c(O)c1", "target": "CD4", "read by": "flow cytometry", "measure": "inhibition", "dose": "100 µg/mL", "result": "55%"}
{"structure": "C=CCN(C(=O)OCc1ccccc1)C1CCN(CCC(C)(c2ccccc2)C2Nc3ccccc3S(=O)(=O)N2)CC1", "target": "CCR3", "measure": "IC50", "result": ">1 µM"}
{"structure": "C=C1CN(S(=O)(=O)c2ccc(Br)cc2)CCCN(Cc2ccccc2)CCCN(S(=O)(=O)c2ccc(Br)cc2)C1", "target": "CD4", "measure": "IC50", "result": "1.77 µM"}